Columns and labels:
[1] = tested on: Pseudomonas aeruginosa; experiment: Ratio of MIC for Pseudomonas aeruginosa 615R to MIC for Pseudomonas aeruginosa PAO1; assay type: functional
[2] = tested on: Pseudomonas aeruginosa; experiment: Ratio of MIC for Pseudomonas aeruginosa 3020R to MIC for Pseudomonas aeruginosa PAO1; assay type: functional

GENTAMICIN
fold change (FC) [1]: > 4
fold change (FC) [2]: > 4
